Compound potency records, mixed from different reports. Data source: NIAID ChemDB in PubChem.

Common to all: host cell toxicity; measure: CC50

CCn: concentration that lowers growth or viability of the cells by n%. Neighbouring rows are from separate reports. An empty or dashed field is not shown.

| SMILES | cells | method | result |
|---|---|---|---|
| Cc1cnn(-c2cccc(CCNC(=O)NCc3ccc(Cl)c(Cl)c3)n2)c1 | PBMC | - | 50 µM |
| CCOC(=O)CCCCCOc1cccc(CNC(C)C)c1 | RAJI | - | >20 µM |
| NC(=S)Nc1cccc(OCCCCCNc2ccccc2-c2ccco2)c1 | Ava5-EG(delta4AB)SEAP | MTS | >1 µM |
| CN(Cc1ccccc1)C(=O)c1c(O)c2cccnc2n(O)c1=O | HeLa | - | <100 µM |
| O=C(NCCc1ccc2c(n1)NCCC2)Nc1c(F)cc(Br)cc1F | PBMC | - | 20 µM |
| O=C(Nc1ccc2c(c1)OCO2)c1cc(-c2cccs2)nc2ccccc12 | RAJI | - | >20 µM |
| O=c1cc(N[C@H](CN2CCCCC2)c2ccccc2)c2cccnc2n1O | HeLa | - | <100 µM |
| O=C(NCCc1ccc2c(n1)NCCC2)NC1CCCC1 | PBMC | - | 50 µM |
| CCOC(=O)c1c(Nc2ccccc2)c2cccnc2n(O)c1=O | HeLa | - | <100 µM |
| CCCCCCNC(=S)Nc1cccc(OCCCCCc2ccccc2)c1 | Ava5-EG(delta4AB)SEAP | MTS | >1 µM |
| Fc1cccc(NC(=S)NCCc2ccc3c(n2)NCCC3)c1 | PBMC | - | 1.96 µM |
| CCCCCCCCNC(=S)Nc1ccc2c(c1)Cc1cc(Br)ccc1-2 | Ava5-EG(delta4AB)SEAP | MTS | >1 µM |
| NCc1cccc(-c2cnc3c(c2)c(O)c(-c2ccccc2)c(=O)n3O)c1 | HeLa | - | <100 µM |
| NC(=S)Nc1cccc(OCCCCCOc2ccccn2)c1 | Ava5-EG(delta4AB)SEAP | MTS | >1 µM |
| O=S(=O)(NCCc1ccc2c(n1)NCCC2)c1ccc(-c2ccccc2)cc1 | PBMC | - | 50 µM |
| CC(C)N(Cc1ccccc1)C(=O)c1ccc(-c2ccc3c(c2)OCO3)cc1 | HEK 293 | - | <13.5 µM |
| NC(=S)Nc1ccc2c(c1)Cc1cc(NC(=O)c3ccno3)ccc1-2 | Ava5-EG(delta4AB)SEAP | MTS | >1 µM |
| CC(C)N(Cc1cccc(OCCCCCC(=O)OC(=O)O)c1)C(=O)c1ccc(-c2cccc(S(C)(=O)=O)c2)cc1 | HEK 293 | - | >20 µM |
| NC(=S)Nc1cccc(OCCCCCCOc2ccc(-c3ccccc3)cc2)c1 | Ava5-EG(delta4AB)SEAP | MTS | >1 µM |